Patent publication US10208083B2 (priority 2015, dated 2019)

Columns and labels:
Test in all cases: MTT assay, cytostatic and cytotoxic activity
Type in all cases: cell-based, human
Design in all cases: TGI: unit not given here
Conditions in all cases: 48 h treatment, 0.1-100 μmol/1 tested
MOLT-4 = tested on: MOLT-4
T-47D = tested on: T-47D
K-562 = tested on: K-562
UWB1.289 + BRCA1 = tested on: UWB1.289 + BRCA1
OVCAR-3 = tested on: OVCAR-3
MCF-7 = tested on: MCF-7
UWB1.289 = tested on: UWB1.289
SKOV-3 = tested on: SKOV-3
PC-3 = tested on: PC-3
[1] = half maximal cytotoxic concentration

Question: With `O=C(O)CCOc1ccc(N(CCCl)CCCl)cc1` as the molecule, how does the GI50 (MOLT-4; 50% growth inhibition) read?
Answer: 31 µM

Question: And the IC50 (MOLT-4; [1])?
Answer: > 100 µM

Question: And the TGI (MOLT-4; total (100%) growth inhibition)?
Answer: 75

Question: What about the GI50 (T-47D; 50% growth inhibition) of the same molecule?
Answer: 95 µM

Question: What about the IC50 (T-47D; [1]) of the same molecule?
Answer: > 100 µM

Question: What about the TGI (T-47D; total (100%) growth inhibition) of the same molecule?
Answer: >100

Question: And the GI50 (K-562; 50% growth inhibition)?
Answer: 46 µM

Question: And the IC50 (K-562; [1])?
Answer: > 100 µM

Question: What about the TGI (K-562; total (100%) growth inhibition) of the same molecule?
Answer: 91

Question: What about the GI50 (UWB1.289 + BRCA1; 50% growth inhibition) of the same molecule?
Answer: > 100 µM

Question: And the IC50 (UWB1.289 + BRCA1; [1])?
Answer: > 100 µM

Question: What about the TGI (UWB1.289 + BRCA1; total (100%) growth inhibition) of the same molecule?
Answer: >100

Question: And the GI50 (OVCAR-3; 50% growth inhibition)?
Answer: 56 µM

Question: And the IC50 (OVCAR-3; [1])?
Answer: > 100 µM

Question: What about the TGI (OVCAR-3; total (100%) growth inhibition) of the same molecule?
Answer: 92

Question: And the GI50 (MCF-7; 50% growth inhibition)?
Answer: > 100 µM

Question: And the IC50 (MCF-7; [1])?
Answer: > 100 µM

Question: And the TGI (MCF-7; total (100%) growth inhibition)?
Answer: >100

Question: What about the GI50 (UWB1.289; 50% growth inhibition) of the same molecule?
Answer: 20 µM

Question: And the IC50 (UWB1.289; [1])?
Answer: > 100 µM

Question: And the TGI (UWB1.289; total (100%) growth inhibition)?
Answer: 76

Question: And the GI50 (SKOV-3; 50% growth inhibition)?
Answer: 50 µM

Question: And the IC50 (SKOV-3; [1])?
Answer: > 100 µM

Question: And the TGI (SKOV-3; total (100%) growth inhibition)?
Answer: >100

Question: And the GI50 (PC-3; 50% growth inhibition)?
Answer: 89 µM

Question: What about the IC50 (PC-3; [1]) of the same molecule?
Answer: > 100 µM

Question: And the TGI (PC-3; total (100%) growth inhibition)?
Answer: >100
